PubChem BioAssay AID624099 – ICCB-Longwood – 2012

- Assay: 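Knock-downs relieving repression by E2 of an HPV18 LCR luciferase reporter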 (primary screen)
- Cell system: human C33A cervical carcinoma cells (HPV-negative) stably expressing BPV1 E2 and an HPV18 LCR luciferase reporter
- Reagent: siRNA pool against human genes, 40 nM
- Time to read-out: 72 h
- Measured: 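Per-well luciferase luminescence, z-scored on each plate against the plate mean and SD with control wells left out, then averaged across three replicate plates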
- Scale: mean z-score and z-score: higher = stronger reporter signal, weaker E2 silencing
- Hit rule: 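Mean z ≥ 2 together with z ≥ 2 in two or more of the three replicates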
Shown is a random part of about 21,000 deposited reagents. Of all reagents, 497 (2.4%) are marked active. 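Higher z means weaker E2 silencing; only reporter increases were scored, and knock-downs that hurt cell survival may mask genuine repressor factors.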 The numbers tell different reagents against one gene apart.

no.	target	reagent no.	mean z-score	z-score, replicate A	z-score, replicate B	z-score, replicate C	call
1	CELA3B (GeneID 23436)	1	-0.66	-1.14	-0.55	-0.29	inactive
2	PLIN3 (GeneID 10226)	1	-0.17	0.21	-0.2	-0.53	inactive
3	KLHL3 (GeneID 26249)	1	0.6	0.57	0.7	0.54	inactive
4	LOC122423 (retired record) (GeneID 122423)	1	-1.43	-1.59	-1.55	-1.17	inactive
5	COLEC11 (GeneID 78989)	1	0.23	0.03	0.35	0.31	inactive
6	HPS3 (GeneID 84343)	1	-0.48	-0.48	-0.37	-0.6	inactive
7	TMEM219 (GeneID 124446)	1	-0.23	-0.17	-0.21	-0.3	inactive
8	GJB1 (GeneID 2705)	1	-0.23	-0.58	0.12	-0.25	inactive
9	GJD3 (GeneID 125111)	1	0.35	0.3	0.42	0.32	inactive
10	AMPD3 (GeneID 272)	1	0.76	0.95	0.92	0.4	inactive
11	GPR15LG (GeneID 387695)	1	-0.03	-0.41	0.2	0.11	inactive
12	CSPG4P2Y (GeneID 84664)	1	0.15	0.42	0.22	-0.19	inactive
13	HHIPL1 (GeneID 84439)	1	0.58	0.75	1.11	-0.11	inactive
14	VCX3B (GeneID 425054)	1	-0.68	-0.39	-0.85	-0.8	inactive
15	MAFF (GeneID 23764)	1	0.52	0.56	0.56	0.46	inactive
16	SPAG5 (GeneID 10615)	1	-1.84	-1.85	-1.91	-1.75	inactive
17	FCHSD2 (GeneID 9873)	1	0.08	-0.05	0.2	0.09	inactive
18	LINC00880 (GeneID 339894)	1	-0.23	-0.1	-0.14	-0.44	inactive
19	SOWAHA (GeneID 134548)	1	0.41	0.45	0.59	0.18	inactive
20	MMS19 (GeneID 64210)	1	0.91	0.74	0.91	1.08	inactive
21	NOP16 (GeneID 51491)	1	0.02	0.18	-0.51	0.39	inactive
22	LOC442030 (retired record) (GeneID 442030)	1	-0.12	-0.6	0.08	0.16	inactive
23	PSEN2 (GeneID 5664)	1	0.95	0.92	0.93	0.99	inactive
24	NBPF22P (GeneID 285622)	1	0.32	0.58	0.18	0.2	inactive
25	MMP10 (GeneID 4319)	1	-0.4	-0.48	-0.43	-0.29	inactive
26	CMKLR1 (GeneID 1240)	1	0.62	0.76	0.47	0.63	inactive
27	LINC02363 (GeneID 728175)	1	0.09	0.02	-0.01	0.26	inactive
28	KPNA4 (GeneID 3840)	1	1.57	1.77	1.72	1.21	inactive
29	AJUBA (GeneID 84962)	1	0.68	1.13	0.18	0.73	inactive
30	RORC (GeneID 6097)	1	0.63	0.51	0.76	0.61	inactive
31	IMP4 (GeneID 92856)	1	-0.44	-0.33	-0.68	-0.32	inactive
32	FGF2 (GeneID 2247)	1	1.94	2.17	1.76	1.87	inactive
33	PSPN (GeneID 5623)	1	-0.03	0.05	0.04	-0.17	inactive

Already shown: 12 of the entries above.
no.	target	reagent no.	mean z-score	z-score, replicate A	z-score, replicate B	z-score, replicate C	call
10	AMPD3 (GeneID 272)	1	0.76	0.95	0.92	0.4	inactive
11	GPR15LG (GeneID 387695)	1	-0.03	-0.41	0.2	0.11	inactive
12	CSPG4P2Y (GeneID 84664)	1	0.15	0.42	0.22	-0.19	inactive
13	HHIPL1 (GeneID 84439)	1	0.58	0.75	1.11	-0.11	inactive
14	VCX3B (GeneID 425054)	1	-0.68	-0.39	-0.85	-0.8	inactive
15	MAFF (GeneID 23764)	1	0.52	0.56	0.56	0.46	inactive
16	SPAG5 (GeneID 10615)	1	-1.84	-1.85	-1.91	-1.75	inactive
17	FCHSD2 (GeneID 9873)	1	0.08	-0.05	0.2	0.09	inactive
18	LINC00880 (GeneID 339894)	1	-0.23	-0.1	-0.14	-0.44	inactive
19	SOWAHA (GeneID 134548)	1	0.41	0.45	0.59	0.18	inactive
20	MMS19 (GeneID 64210)	1	0.91	0.74	0.91	1.08	inactive
21	NOP16 (GeneID 51491)	1	0.02	0.18	-0.51	0.39	inactive

Further results follow.
no.	target	reagent no.	mean z-score	z-score, replicate A	z-score, replicate B	z-score, replicate C	call
34	TMEM235 (GeneID 283999)	1	0.04	-0.41	0.18	0.34	inactive
35	ZSWIM8 (GeneID 23053)	1	-2.52	-2.42	-2.42	-2.72	inactive
36	ZSWIM8 (GeneID 23053)	2	2.11	2.02	1.95	2.35	active
37	NUTF2 (GeneID 10204)	1	0.32	0.5	0.34	0.1	inactive
38	USH1G (GeneID 124590)	1	-1.03	-0.99	-1.07	-1.03	inactive
39	LOC342600 (retired record) (GeneID 342600)	1	-1.14	-1.15	-1.5	-0.78	inactive
40	AQP4-AS1 (GeneID 147429)	1	-1.82	-2.02	-1.46	-1.99	inactive
41	CAP1 (GeneID 10487)	1	1.27	1.09	1.26	1.46	inactive
42	GSTZ1 (GeneID 2954)	1	-0.56	-0.34	-0.73	-0.6	inactive
43	RORA (GeneID 6095)	1	-0.42	-0.24	-0.59	-0.45	inactive
44	ARV1 (GeneID 64801)	1	0.12	0.69	-0.1	-0.24	inactive
45	PRDM13 (GeneID 59336)	1	0.65	0.44	1.04	0.47	inactive
46	PPP2R3C (GeneID 55012)	1	-0.2	0.02	-0.27	-0.34	inactive
47	RABEPK (GeneID 10244)	1	0.56	0.44	0.71	0.53	inactive
48	TUBA4B (GeneID 80086)	1	1.41	1.35	1.41	1.48	inactive
49	PHC2 (GeneID 1912)	1	0.87	1.09	0.87	0.66	inactive
50	MUC7 (GeneID 4589)	1	0.1	0.21	0.02	0.07	inactive
51	ACLY (GeneID 47)	1	1.95	2.07	1.87	1.9	inactive
52	RETSAT (GeneID 54884)	1	-0.15	-0.13	0.22	-0.54	inactive
53	TOPBP1 (GeneID 11073)	1	0.8	0.66	0.77	0.96	inactive
54	EFNA3 (GeneID 1944)	1	0.08	0.04	0.11	0.09	inactive
55	MIR9-1HG (GeneID 10485)	1	0.2	0.38	0.12	0.09	inactive
56	TSPAN17 (GeneID 26262)	1	-0.6	-0.43	-0.65	-0.72	inactive
57	DOCK10 (GeneID 55619)	1	-0.48	-0.54	-0.61	-0.3	inactive
58	PRSS54 (GeneID 221191)	1	0.24	-0.09	0.6	0.21	inactive
59	XXYLT1 (GeneID 152002)	1	-0.9	-0.99	-0.85	-0.85	inactive
60	IGHV3OR16-8 (GeneID 388255)	1	0.15	0.13	0.08	0.25	inactive
61	UGT3A2 (GeneID 167127)	1	-0.34	-0.34	-0.08	-0.6	inactive
62	ARSK (GeneID 153642)	1	-0.73	-0.24	-0.97	-0.98	inactive
63	BTN2A3P (GeneID 54718)	1	1.65	1.81	1.51	1.61	inactive
64	GTF2A2 (GeneID 2958)	1	-1.26	-1.06	-1.76	-0.97	inactive
65	WDCP (GeneID 80304)	1	-1.1	-1.14	-1.42	-0.74	inactive
66	TRNT1 (GeneID 51095)	1	0.7	0.89	0.54	0.68	inactive
67	PAXBP1 (GeneID 94104)	1	-0.4	-0.23	-0.43	-0.52	inactive
68	MFSD1 (GeneID 64747)	1	-0.28	-0.51	0.19	-0.52	inactive
69	MTX1 (GeneID 4580)	1	0.29	0.17	0.47	0.23	inactive
70	C19orf47 (GeneID 126526)	1	0.49	0.85	0.26	0.37	inactive
71	CEP170B (GeneID 283638)	1	0.23	0.37	0.23	0.08	inactive
72	CENPQ (GeneID 55166)	1	0.6	-0.08	0.34	1.55	inactive
73	SAFB (GeneID 6294)	1	-0.02	-0.45	0.25	0.14	inactive
